Measurements taken from EP1951748B1, “HEPATITIS C VIRUS VARIANTS” (Vertex Pharmaceuticals, Inc., priority 2005, dated 2007).
Values joined by “and” are separate entries in the source; they are usually repeats but may differ in a detail not shown here. Equal entries are not always repeated.

What was measured:
[1] = test system: HCV NS3 protease V36M; conditions: enzyme IC50 of V36M compared to the genotype 1a HCV-H reference strain, 15 min
[2] = test system: HCV NS3 protease R155K; conditions: enzyme IC50 of R155K compared to the genotype 1a HCV-H reference strain, 15 min
[3] = test system: HCV NS3 protease V36L; conditions: enzyme IC50 of V36L compared to the genotype 1a HCV-H reference strain; 15 min
[4] = test system: HCV NS3 protease R155T; conditions: enzyme IC50 of R155T compared to the genotype 1a HCV-H reference strain, 15 min
[5] = test system: HCV NS3 protease T54S

## COc1ccc2c(O[C@@H]3C[C@H]4C(=O)N[C@]5(C(=O)O)C[C@H]5/C=C\CCCCC[C@H](NC(=O)OC5CCCC5)C(=O)N4C3)cc(-c3csc(NC(C)C)n3)nc2c1 [BILN 2061]
[1]
  Fold change: 0.5 and 0.4
[2]
  Fold change: 137 and >183
[3]
  Fold change: 0.5
[4]
  Fold change: 151 and 174
[5]; T54S
  IC50: 3.6 nM
[5]; enzyme IC50 of T54S compared to the genotype 1a HCV-H reference strain, 15 min
  Fold change: 0.8
